Source: patent publication US20220089698A1, “ANTIBODIES THAT TARGET HIV GP120 AND METHODS OF USE” (published 2022)
Residue numbers refer to the chain shown, from its start.

B1: Antibody 3.1.5-1 (antibody, human IgG1, kappa)
heavy: QVQLLQSGAAVTKPGASVRVSCEASGYNIRDYFIHWWRQAPGQGLQWVGWINPKTGQPNNPRQFQGRVSLTRHASWDFDTFSFYMDLKALRSDDTAVYFCARQRSDYWDFDVWGSGTQVTVSSASTKGPSVFPLAPSSKSTSGGTAALGCLVKDYFPEPVTVSWNSGALTSGVHTFPAVLQSSGLYSLSSVVTVPSSSLGTQTYICNVNHKPSNTKVDKKVEPKSCDKTHTCPPCPAPELLAGPDVFLFPPKPKDTLMISRTPEVTCVVVDVSHEDPEVKFNWYVDGVEVHNAKTKPREEQYNSTYRVVSVLTVLHQDWLNGKEYKCKVSNKALPLPEEKTISKAKGQPREPQVYTLPPSREEMTKNQVSLTCLVKGFYPSDIAVEWESNGQPENNYKTTPPVLDSDGSFFLYSKLTVDKSRWQQGNVFSCSVLHEALHSHYTQKSLSLSPGK
light: not shown
B2: Antibody 2.2.5-1 (antibody, human IgG1, kappa)
heavy: B1 heavy with Q3H, L5S, N28K, Y32H, L90V, V97I
light: not shown
B3: Antibody 2.3.5-1 (antibody, human IgG1, kappa)
heavy: B1 heavy with Q3H, L5S, L90V, V97I
light: not shown

How the values were obtained:
Assay in all cases: cell-based or functional assay
[1] = biological target: HIV-1 envelope glycoprotein (Env, gp120) of virus 1003 (HIV-1)
[2] = biological target: HIV-1 envelope glycoprotein (Env, gp120) of virus 1012 (HIV-1)
[3] = biological target: HIV-1 envelope glycoprotein (Env, gp120) of virus 1413 (HIV-1)
[4] = biological target: HIV-1 envelope glycoprotein (Env, gp120) of virus 1489 (HIV-1)
[5] = biological target: HIV-1 envelope glycoprotein (Env, gp120) of virus 7015 (HIV-1)
[6] = biological target: HIV-1 envelope glycoprotein (Env, gp120) of virus 7051 (HIV-1)
[7] = biological target: HIV-1 envelope glycoprotein (Env, gp120) of virus 7103 (HIV-1)
[8] = biological target: HIV-1 envelope glycoprotein (Env, gp120) of virus 7141 (HIV-1)
[9] = biological target: HIV-1 envelope glycoprotein (Env, gp120) of virus 7467 (HIV-1)
[10] = biological target: HIV-1 envelope glycoprotein (Env, gp120) of virus 7552 (HIV-1)
[11] = biological target: HIV-1 envelope glycoprotein (Env, gp120) of virus 7576 (HIV-1)
[12] = biological target: HIV-1 envelope glycoprotein (Env, gp120) of virus 7595 (HIV-1)
[13] = biological target: HIV-1 envelope glycoprotein (Env, gp120) of virus 7714 (HIV-1)
[14] = biological target: HIV-1 envelope glycoprotein (Env, gp120) of virus 8106 (HIV-1)
[15] = biological target: HIV-1 envelope glycoprotein (Env, gp120) of virus 8110 (HIV-1)
[16] = biological target: HIV-1 envelope glycoprotein (Env, gp120) of virus 8117 (HIV-1)
[17] = biological target: HIV-1 envelope glycoprotein (Env, gp120) of virus 8134 (HIV-1)
[18] = biological target: HIV-1 envelope glycoprotein (Env, gp120) of virus 8176 (HIV-1)
[19] = biological target: HIV-1 envelope glycoprotein (Env, gp120) of virus 8318 (HIV-1)
[20] = biological target: HIV-1 envelope glycoprotein (Env, gp120) of virus 8320 (HIV-1)
[21] = biological target: HIV-1 envelope glycoprotein (Env, gp120) of virus 302076 (HIV-1)
[22] = biological target: HIV-1 envelope glycoprotein (Env, gp120) of virus 92HT593 (HIV-1)
[23] = biological target: HIV-1 envelope glycoprotein (Env, gp120) of virus 92US657 (HIV-1)
[24] = biological target: HIV-1 envelope glycoprotein (Env, gp120) of virus 92US712 (HIV-1)
[25] = biological target: HIV-1 envelope glycoprotein (Env, gp120) of virus 92US727 (HIV-1)
[26] = biological target: HIV-1 envelope glycoprotein (Env, gp120) of virus CHO77 (HIV-1)
[27] = biological target: HIV-1 envelope glycoprotein (Env, gp120) of virus REJO (HIV-1)
[28] = biological target: HIV-1 envelope glycoprotein (Env, gp120) of virus THRO (HIV-1)
[29] = biological target: HIV-1 envelope glycoprotein (Env, gp120) of virus VS001 (HIV-1)
[30] = biological target: HIV-1 envelope glycoprotein (Env, gp120) of virus VS004 (HIV-1)
[31] = biological target: HIV-1 envelope glycoprotein (Env, gp120) of virus VS017 (HIV-1)
[32] = biological target: HIV-1 envelope glycoprotein (Env, gp120) of virus VS026 (HIV-1)
[33] = biological target: HIV-1 envelope glycoprotein (Env, gp120) of virus VS030 (HIV-1)
[34] = biological target: HIV-1 envelope glycoprotein (Env, gp120) of virus VS039 (HIV-1)
[35] = biological target: HIV-1 envelope glycoprotein (Env, gp120) of virus VS042 (HIV-1)
[36] = biological target: HIV-1 envelope glycoprotein (Env, gp120) of virus VS043 (HIV-1)
[37] = biological target: HIV-1 envelope glycoprotein (Env, gp120) of virus VS044 (HIV-1)
[38] = biological target: HIV-1 envelope glycoprotein (Env, gp120) of virus VS046 (HIV-1)
[39] = biological target: HIV-1 envelope glycoprotein (Env, gp120) of virus VS049 (HIV-1)
[40] = biological target: HIV-1 envelope glycoprotein (Env, gp120) of virus VS052 (HIV-1)

Row | Binder | Virus Neutralization Potency [1] [µg/mL] | Virus Neutralization Potency [2] [µg/mL] | Virus Neutralization Potency [3] [µg/mL] | Virus Neutralization Potency [4] [µg/mL] | Virus Neutralization Potency [5] [µg/mL] | Virus Neutralization Potency [6] [µg/mL] | Virus Neutralization Potency [7] [µg/mL] | Virus Neutralization Potency [8] [µg/mL] | Virus Neutralization Potency [9] [µg/mL] | Virus Neutralization Potency [10] [µg/mL] | Virus Neutralization Potency [11] [µg/mL] | Virus Neutralization Potency [12] [µg/mL] | Virus Neutralization Potency [13] [µg/mL] | Virus Neutralization Potency [14] [µg/mL] | Virus Neutralization Potency [15] [µg/mL] | Virus Neutralization Potency [16] [µg/mL] | Virus Neutralization Potency [17] [µg/mL] | Virus Neutralization Potency [18] [µg/mL] | Virus Neutralization Potency [19] [µg/mL] | Virus Neutralization Potency [20] [µg/mL] | further results
1 | B1 | 1.02 | 1.19 | 4.3 | 0.16 | 1.16 | 1.27 | 0.91 | 3.31 | 0.12 | > 80 | 0.55 | 3.56 | 1.5 | 1.45 | 1.81 | 1.02 | 2.78 | 0.3 | 0.36 | 1.33 | Virus Neutralization Potency [21]: 0.06 µg/mL; Virus Neutralization Potency [22]: 0.16 µg/mL; Virus Neutralization Potency [23]: 0.27 µg/mL; Virus Neutralization Potency [24]: 0.06 µg/mL; Virus Neutralization Potency [25]: 12 µg/mL; Virus Neutralization Potency [26]: 0.04 µg/mL; Virus Neutralization Potency [27]: 0.02 µg/mL; Virus Neutralization Potency [28]: 2.7 µg/mL; Virus Neutralization Potency [29]: 0.1 µg/mL; Virus Neutralization Potency [30]: 1.55 µg/mL; Virus Neutralization Potency [31]: 1.03 µg/mL; Virus Neutralization Potency [32]: 0.1 µg/mL; Virus Neutralization Potency [33]: 6.86 µg/mL; Virus Neutralization Potency [34]: 0.12 µg/mL; Virus Neutralization Potency [35]: 1.94 µg/mL; Virus Neutralization Potency [36]: 0.54 µg/mL; Virus Neutralization Potency [37]: 0.16 µg/mL; Virus Neutralization Potency [38]: 0.03 µg/mL; Virus Neutralization Potency [39]: 20.4 µg/mL
2 | B2 | 0.78 | 0.98 | 3.62 | 0.11 | 0.95 | 3.51 | 0.78 | 1.75 | 0.07 | > 80 | 0.58 | 2.94 | 0.8 | 0.94 | 1.1 | 0.75 | 1.74 | 0.2 | 0.33 | 1.21 | Virus Neutralization Potency [40]: 0.2 µg/mL; Virus Neutralization Potency [21]: 0.06 µg/mL; Virus Neutralization Potency [22]: 0.11 µg/mL; Virus Neutralization Potency [23]: 0.15 µg/mL; Virus Neutralization Potency [24]: 0.04 µg/mL; Virus Neutralization Potency [25]: 16.7 µg/mL; Virus Neutralization Potency [26]: 0.02 µg/mL; Virus Neutralization Potency [27]: 0.01 µg/mL; Virus Neutralization Potency [28]: 1.22 µg/mL; Virus Neutralization Potency [29]: 0.1 µg/mL; Virus Neutralization Potency [30]: 3.22 µg/mL; Virus Neutralization Potency [31]: 0.77 µg/mL; Virus Neutralization Potency [32]: 0.06 µg/mL; Virus Neutralization Potency [33]: 4.22 µg/mL; Virus Neutralization Potency [34]: 0.06 µg/mL; Virus Neutralization Potency [35]: 1.21 µg/mL; Virus Neutralization Potency [36]: 0.41 µg/mL; Virus Neutralization Potency [37]: 0.12 µg/mL; Virus Neutralization Potency [38]: 0.03 µg/mL; Virus Neutralization Potency [39]: 10.8 µg/mL
3 | B3 | 1.06 | 1.63 | 3.79 | 0.14 | 1.89 | 4.46 | 1.05 | 2.41 | 0.09 | > 80 | 0.61 | 3.07 | 1.47 | 1.44 | 1.82 | 1.06 | 1.52 | 0.33 | 0.41 | 1.48 | Virus Neutralization Potency [40]: 0.31 µg/mL; Virus Neutralization Potency [21]: 0.06 µg/mL; Virus Neutralization Potency [22]: 0.17 µg/mL; Virus Neutralization Potency [23]: 0.24 µg/mL; Virus Neutralization Potency [24]: 0.05 µg/mL; Virus Neutralization Potency [25]: 9.32 µg/mL; Virus Neutralization Potency [26]: 0.04 µg/mL; Virus Neutralization Potency [27]: 0.02 µg/mL; Virus Neutralization Potency [28]: 2.34 µg/mL; Virus Neutralization Potency [29]: 0.13 µg/mL; Virus Neutralization Potency [30]: 2.77 µg/mL; Virus Neutralization Potency [31]: 0.7 µg/mL; Virus Neutralization Potency [32]: 0.1 µg/mL; Virus Neutralization Potency [33]: 6.23 µg/mL; Virus Neutralization Potency [34]: 0.15 µg/mL; Virus Neutralization Potency [35]: 1.56 µg/mL; Virus Neutralization Potency [36]: 0.79 µg/mL; Virus Neutralization Potency [37]: 0.17 µg/mL; Virus Neutralization Potency [38]: 0.04 µg/mL; Virus Neutralization Potency [39]: 36.1 µg/mL
